Paper PMC6072100, “Exploring the links between peptoid antibacterial activity and toxicity” (MedChemComm, 2017)
Square brackets hold non-standard residues; d marks the D form. Peptide text beside a SMILES is read from it. N(4-F-Bzl)Gly = O=C(O)CNCc1ccc(F)cc1; Gly(N-2-aminoethyl) = NCCNCC(=O)O; Nspe = C[C@H](NCC(=O)O)c1ccccc1; NhArg = N=C(N)NCCCCNCC(=O)O; Nphe = O=C(O)CNCc1ccccc1; Nlys = NCCCCNCC(=O)O

Key:
Format in all cases: cell-based
[1] = test system: Pseudomonas aeruginosa PA01 (ATCC 15692); conditions: for Average selectivity P. aeruginosa: average of selectivity to HaCaT and HepG2, selectivity = toxicity/activity; for Selectivity Index HaCaT, P. aeruginosa: ED50 HaCaT / MIC P. aeruginosa; for Selectivity Index HepG2, P. aeruginosa: ED50 HepG2 / MIC P. aeruginosa
Method: (§1) Escherichia coli K-12 wild-type strain (W3110/ATCC27325, F^–, λ^–, rpoS(Am), rph-1, Inv(rrnD-rrnE)), Pseudomonas aeruginosa PA01 (ATCC 15692) Staphylococcus aureus (3R7089 strain Oxford/ATCC9144) and Staphylococcus epidermidis (laboratory strain from clinical isolate) were selected for bacteriological studies as representative Gram-negative (E. coli and P. aeruginosa) and Gram-positive (S. aureus and S. epidermidis) species. Bacterial cultures were prepared by streaking bacterial strains onto LB agar plates with an inoculation loop and incubated overnight at 37 °C. A single colony was selected and placed in 5 mL of Iso-sensitest broth (Oxoid, ThermoScientific) and incubated with shaking for 16–18 h at 37 °C to provide liquid cultures for testing.
(§2) MIC values were obtained according to the protocol described by J. M. Andrews et al.[58] and were conducted in 96-well plates (Sarstedt). Bacteria were grown from overnight cultures in Iso-sensitest broth to an A650nm of 0.07 equivalent to a 0.5 MacFarland standard (240 μM BaCl2 in 0.18 M H2SO4). This culture was diluted ten-fold with Iso-sensitest broth before use. Peptoids were initially dissolved in DMSO (5 mM) and diluted further in Iso-sensitest broth to achieve a concentration range of 4–200 μM using 2-fold serial dilutions. 50 μl of inoculum and 50 μl of peptoid solution were added to each test well (final concentration range of 2–100 μM). Experiments were performed in triplicate. A positive control for bacterial growth contained only the inoculum and Iso-sensitest broth. Other controls contained the inoculum and serial dilutions of ampicillin (from 250 μg mL^–1 to 2 μg mL^–1), serial dilutions of DMSO and the inoculum to confirm no inhibitory effect on bacterial growth, and Iso-sensitest broth alone as a sterile control. […] Quantitative data was attained from absorbance values using a Biotek Synergy H4 plate reader.
(§3) Antibacterial MIC determination
as §1, with “(W3110 / ATCC27325, F-, λ-,” for “(W3110/ATCC27325, F^–, λ^–,”, “Oxford / ATCC9144)” for “Oxford/ATCC9144)”, “°C.” for “°C. A single colony was selected and placed in 5 mL of Iso-sensitest broth (Oxoid, ThermoScientific) and incubated with shaking for 16–18 h at 37 °C to provide liquid cultures for testing.”
(§4) A single colony was selected and placed in 5 mL of Iso-sensitest broth (Oxoid, ThermoScientific) and incubated with shaking for 16-18 h at 37 °C to provide liquid […]
(§5) MIC values were obtained according to the protocol described by J. M. Andrews et al.1 and were conducted in 96-well plates (Sarstedt). Bacteria were grown from overnight cultures in Iso-sensitest broth to an A650nm of 0.07 equivalent to a 0.5 MacFarland standard (240 μM BaCl2 in 0.18 M H2SO4). This culture was diluted ten-fold with Iso-sensitest broth before use. Peptoids were initially dissolved in DMSO (5 mM) and diluted further in Iso-sensitest broth to achieve a concentration range of 4 – 200 µM using 2-fold serial dilutions. 50 μl of inoculum and 50 μl of peptoid solution were added to each test well (final concentration range of 2 – 100 µM). Experiments were performed in triplicate. A positive control for bacterial growth contained only the inoculum and Iso-sensitest broth. Other controls contained the inoculum and serial dilutions of ampicillin (from 250 µg/mL to 2 µg/mL), serial dilutions of DMSO and the inoculum to confirm no inhibitory effect on bacterial growth, and Iso-sensitest broth alone as a sterile control. […]
(§6) growth after incubation at 37 °C for 16 h with shaking. Quantitative data was attained from absorbance values using a Biotek Synergy H4 plate reader.

[2] = test system: Staphylococcus aureus (3R7089 strain Oxford/ATCC9144); conditions: for Average selectivity S. aureus: average of selectivity to HaCaT and HepG2, selectivity = toxicity/activity; for Selectivity Index HaCaT, S. aureus: ED50 HaCaT / MIC S. aureus; for Selectivity Index HepG2, S. aureus: ED50 HepG2 / MIC S. aureus
Method: as §1, §2, §3
as §1, with “(W3110 / ATCC27325, F-, λ-,” for “(W3110/ATCC27325, F^–, λ^–,”, “Oxford / ATCC9144)” for “Oxford/ATCC9144)”, “°C.” for “°C. A single colony was selected and placed in 5 mL of Iso-sensitest broth (Oxoid, ThermoScientific) and incubated with shaking for 16–18 h at 37 °C to provide liquid cultures for testing.”
as §4, §5, §6

[3] = test system: Staphylococcus epidermidis (laboratory strain from clinical isolate); conditions: for Average selectivity S. epidermidis: average of selectivity to HaCaT and HepG2, selectivity = toxicity/activity; for Selectivity Index HaCaT, S. epidermidis: ED50 HaCaT / MIC S. epidermidis; for Selectivity Index HepG2, S. epidermidis: ED50 HepG2 / MIC S. epidermidis
Method: as §1, §2, §3
as §1, with “(W3110 / ATCC27325, F-, λ-,” for “(W3110/ATCC27325, F^–, λ^–,”, “Oxford / ATCC9144)” for “Oxford/ATCC9144)”, “°C.” for “°C. A single colony was selected and placed in 5 mL of Iso-sensitest broth (Oxoid, ThermoScientific) and incubated with shaking for 16–18 h at 37 °C to provide liquid cultures for testing.”
as §4, §5, §6

Structure (SMILES) | Average selectivity P. aeruginosa [1] | Average selectivity S. aureus [2] | Average selectivity S. epidermidis [3] | Selectivity Index HaCaT, P. aeruginosa [1] | Selectivity Index HepG2, P. aeruginosa [1] | Selectivity Index HaCaT, S. aureus [2] | Selectivity Index HepG2, S. aureus [2] | Selectivity Index HaCaT, S. epidermidis [3] | Selectivity Index HepG2, S. epidermidis [3]
NCCCCNCC(=O)N(CC(=O)N(CC(=O)N(CCCCN)CC(=O)N(CC(=O)N(CC(=O)N(CCCCN)CC(=O)N(CC(=O)N(CC(N)=O)Cc1ccc(F)cc1)Cc1ccc(F)cc1)Cc1ccc(F)cc1)Cc1ccc(F)cc1)Cc1ccc(F)cc1)Cc1ccc(F)cc1 [Peptoid 23, (NLysNpfbNpfb)3] (H-[Nlys][N(4-F-Bzl)Gly][N(4-F-Bzl)Gly][Nlys][N(4-F-Bzl)Gly][N(4-F-Bzl)Gly][Nlys][N(4-F-Bzl)Gly][N(4-F-Bzl)Gly]-NH2) | > 3 | > 24 | > 24 | – | – | – | – | – | –
C[C@@H](c1ccccc1)N(CC(N)=O)C(=O)CN(Cc1ccc(F)cc1)C(=O)CN(CCCCN)C(=O)CN(C(=O)CN(Cc1ccc(F)cc1)C(=O)CN(CCCCN)C(=O)CN(C(=O)CN(Cc1ccc(F)cc1)C(=O)CNCCCCN)[C@@H](C)c1ccccc1)[C@@H](C)c1ccccc1 [Peptoid 27, (NLysNpfbNspe)3] | 2 | 15 | 22 | 2 | 1 | 17 | 12 | 26 | 18
C[C@@H](c1ccccc1)N(CC(N)=O)C(=O)CN(C(=O)CN(CCCCN)C(=O)CN(Cc1ccc(F)cc1)C(=O)CN(Cc1ccc(F)cc1)C(=O)CN(CCCCN)C(=O)CN(C(=O)CN(C(=O)CNCCCCN)[C@@H](C)c1ccccc1)[C@@H](C)c1ccccc1)[C@@H](C)c1ccccc1 [Peptoid 29, (NLysNspeNspe)(NLysNpfbNpfb)(NLysNspeNspe)] | 3 | 21 | 28 | 3 | 2 | 22 | 14 | 33 | 22
C[C@@H](c1ccccc1)N(CC(N)=O)C(=O)CN(C(=O)CN(CCCCN)C(=O)CN(C(=O)CN(C(=O)CN(CCCCN)C(=O)CN(C(=O)CN(C(=O)CNCCCCN)[C@@H](C)c1ccccc1)[C@@H](C)c1ccccc1)[C@@H](C)c1ccccc1)[C@@H](C)c1ccccc1)[C@@H](C)c1ccccc1 [Peptoid 14, (NLysNspeNspe)3] (H-[Nlys][Nspe][Nspe][Nlys][Nspe][Nspe][Nlys][Nspe][Nspe]-NH2) | – | > 50 | > 50 | – | – | > 50 | > 50 | > 50 | > 50
N=C(N)NCCCCNCC(=O)N(CC(=O)N(CC(=O)N(CCCCNC(=N)N)CC(=O)N(CC(=O)N(CC(=O)N(CCCCNC(=N)N)CC(=O)N(CC(=O)N(CC(=O)N(CCCCNC(=N)N)CC(=O)N(CC(=O)N(CC(N)=O)Cc1ccccc1)Cc1ccccc1)Cc1ccccc1)Cc1ccccc1)Cc1ccccc1)Cc1ccccc1)Cc1ccccc1)Cc1ccccc1 [Peptoid 33, (NhArgNpheNphe)4] (H-[NhArg][Nphe][Nphe][NhArg][Nphe][Nphe][NhArg][Nphe][Nphe][NhArg][Nphe][Nphe]-NH2) | > 4 | – | > 50 | – | – | – | – | – | –
C[C@@H](c1ccccc1)N(CC(N)=O)C(=O)CN(C(=O)CN(CCN)C(=O)CN(C(=O)CN(C(=O)CN(CCN)C(=O)CN(C(=O)CN(C(=O)CNCCN)[C@@H](C)c1ccccc1)[C@@H](C)c1ccccc1)[C@@H](C)c1ccccc1)[C@@H](C)c1ccccc1)[C@@H](C)c1ccccc1 [Peptoid 17, (NaeNspeNspe)3] | – | > 50 | > 8 | – | – | > 50 | > 50 | > 8 | > 8
C[C@@H](c1ccccc1)N(CC(N)=O)C(=O)CN(C(=O)CN(CCCCNC(=N)N)C(=O)CN(C(=O)CN(C(=O)CN(CCCCNC(=N)N)C(=O)CN(C(=O)CN(C(=O)CN(CCCCN)C(=O)CN(C(=O)CN(C(=O)CNCCCCN)[C@@H](C)c1ccccc1)[C@@H](C)c1ccccc1)[C@@H](C)c1ccccc1)[C@@H](C)c1ccccc1)[C@@H](C)c1ccccc1)[C@@H](C)c1ccccc1)[C@@H](C)c1ccccc1 [Peptoid 41, (NLysNspeNspe)2(NhArgNspeNspe)2] (H-[Nlys][Nspe][Nspe][Nlys][Nspe][Nspe][NhArg][Nspe][Nspe][NhArg][Nspe][Nspe]-NH2) | > 3 | > 6 | – | – | – | – | – | – | –
C[C@@H](c1ccccc1)N(CC(N)=O)C(=O)CN(C(=O)CN(CCCCN)C(=O)CN(C(=O)CN(C(=O)CN(CCCCN)C(=O)CN(C(=O)CN(C(=O)CN(CCCCN)C(=O)CN(C(=O)CN(C(=O)CNCCCCN)[C@@H](C)c1ccccc1)[C@@H](C)c1ccccc1)[C@@H](C)c1ccccc1)[C@@H](C)c1ccccc1)[C@@H](C)c1ccccc1)[C@@H](C)c1ccccc1)[C@@H](C)c1ccccc1 [Peptoid 13, (NLysNspeNspe)4] (H-[Nlys][Nspe][Nspe][Nlys][Nspe][Nspe][Nlys][Nspe][Nspe][Nlys][Nspe][Nspe]-NH2) | – | – | – | – | – | 10 | 15 | 20 | 29
NCCCCNCC(=O)N(CC(=O)N(CC(=O)N(CCCCN)CC(=O)N(CC(=O)N(CC(=O)N(CCCCN)CC(=O)N(CC(=O)N(CC(=O)N(CCCCN)CC(=O)N(CC(=O)N(CC(N)=O)Cc1ccc(F)cc1)Cc1ccc(F)cc1)Cc1ccc(F)cc1)Cc1ccc(F)cc1)Cc1ccc(F)cc1)Cc1ccc(F)cc1)Cc1ccc(F)cc1)Cc1ccc(F)cc1 [Peptoid 22, (NLysNpfbNpfb)4] (H-[Nlys][N(4-F-Bzl)Gly][N(4-F-Bzl)Gly][Nlys][N(4-F-Bzl)Gly][N(4-F-Bzl)Gly][Nlys][N(4-F-Bzl)Gly][N(4-F-Bzl)Gly][Nlys][N(4-F-Bzl)Gly][N(4-F-Bzl)Gly]-NH2) | 2 | – | – | – | – | – | – | – | –
NCCNCC(=O)N(CC(=O)N(CC(=O)N(CCN)CC(=O)N(CC(=O)N(CC(=O)N(CCN)CC(=O)N(CC(=O)N(CC(=O)N(CCN)CC(=O)N(CC(=O)N(CC(N)=O)Cc1ccccc1)Cc1ccccc1)Cc1ccccc1)Cc1ccccc1)Cc1ccccc1)Cc1ccccc1)Cc1ccccc1)Cc1ccccc1 [Peptoid 7, (NaeNpheNphe)4] (H-[Gly(N-2-aminoethyl)][Nphe][Nphe][Gly(N-2-aminoethyl)][Nphe][Nphe][Gly(N-2-aminoethyl)][Nphe][Nphe][Gly(N-2-aminoethyl)][Nphe][Nphe]-NH2) | > 2 | > 50 | > 17 | – | – | – | – | – | –
C[C@@H](c1ccccc1)N(CC(N)=O)C(=O)CN(C(=O)CN(CCCCN)C(=O)CN(Cc1ccc(F)cc1)C(=O)CN(Cc1ccc(F)cc1)C(=O)CN(CCCCN)C(=O)CN(C(=O)CN(C(=O)CN(CCCCN)C(=O)CN(Cc1ccc(F)cc1)C(=O)CN(Cc1ccc(F)cc1)C(=O)CNCCCCN)[C@@H](C)c1ccccc1)[C@@H](C)c1ccccc1)[C@@H](C)c1ccccc1 [Peptoid 28, [(NLysNpfbNpfb)(NLysNspeNspe)]2] | – | > 39 | > 78 | – | – | – | – | – | –
